In PMC12066687 (Frontiers in Immunology, 2025):
The amount applied is not stated for every result.

System: VSV-EBOV-GP
Type: cell-based, Ebola virus (EBOV/H.sap-tc/COD/76/Yambuku-Mayinga)

SMILES: CC/C(=C(\c1ccccc1)c1ccc(OCCN(C)C)cc1)c1cccc(NS(=O)(=O)NC2CCOC2)c1 (stereo not shown) [Compound 4]
- increase in cellular antiviral potency compared to 1: ~2 fold
